Results of unrelated studies side by side (data: NIAID ChemDB).

Common to all: tests in culture; agent: Herpes simplex virus 1; cell line: E6SM; measure: EC50

ECn: concentration that inhibits the pathogen or its effect by n%. Conditions beyond the fields shown may differ between rows.

C#C[C@@H](O)C1=C[C@@H](n2cnc3c(N)ncnc32)[C@H](O)[C@@H]1O ; strain: B2006 (TK-) ; method: cytopathic effect ; result: >400 µg/mL
CC1=CC(=O)N(c2ccccc2)S(=O)(=O)N1COCCO ; strain: B206 (TK-) ; result: >400 µg/mL
Nc1cc([C@H]2C[C@H](O)[C@@H](CO)O2)c(F)cc1F ; strain: McIntyre ; method: cytopathic effect ; result: >400 µg/mL
CC(=O)OCCOCN1C(C)=CC(N)=[N+](c2ccccc2)S1(=O)=O ; strain: VMW1837 (TK-) ; result: >400 µg/mL
COC(=O)[C@H](C)NP(=O)(OC[C@H]1O[C@@H](n2cc(/C=C/Br)c(=O)[nH]c2=O)C[C@@H]1O)Oc1ccccc1 ; strain: KOS TK- acyclovir-resistant ; method: cytopathic effect ; result: 48 µM
O=c1[nH]cnc2c1ncn2C1C[C@H](CO)[C@@H](CO)C1 ; strain: KOS ; result: >100 µg/mL
CC(=O)OCCOCN1C=C(C#N)C(N)=NS1(=O)=O ; strain: McIntyre ; result: >400 µg/mL
CC(C)Nc1ncnc2c1ncn2C1C[C@H](CO)[C@@H](CO)C1 ; strain: KOS (TK-) ; result: >100 µg/mL
OCCCCn1cc(Cn2ncc3c(NCc4ccccc4)ncnc32)nn1 ; strain: KOS ; result: >400 µg/mL
Cc1cc([C@H]2C[C@H](O)[C@@H](CO)O2)c(Cl)cc1F ; strain: F ; method: cytopathic effect ; result: >400 µg/mL
COC(=O)[C@H](C)NP(=O)(OC[C@H]1O[C@@H](n2cc(/C=C/Br)c(=O)[nH]c2=O)C[C@@H]1O)Oc1ccc(Cl)cc1 ; strain: KOS TK- acyclovir-resistant ; method: cytopathic effect ; result: 16 µM
CC1(C)[C@@H](CCO)C[C@H]1n1nnc2c(=O)[nH]c(N)nc21 ; strain: TK-/B2006 ; method: cytopathic effect ; result: 40 µg/mL
OC[C@H]1O[C@@H](c2cc(/C=C/Br)c(F)cc2F)C[C@@H]1O ; strain: VMW1837 (TK-) ; method: cytopathic effect ; result: >400 µg/mL
CC1(CO)CCC(Cn2nnc3c(=O)[nH]cnc32)C1(C)C ; strain: KOS ; method: cytopathic effect ; result: ≥200 µg/mL
OCCCCn1nncc1Cn1ncc2c(SCc3ccccc3)ncnc21 ; strain: KOS ; result: >400 µg/mL
CC=NC(=N)c1nc(-c2ccccc2)n(Cc2ccccc2)n1 ; strain: KOS ; method: cytopathic effect ; result: >4 µg/mL
CC(=O)OCCOCN1C(N)=CC(N)=NS1(=O)=O ; strain: VMW1837 (TK-) ; result: >400 µg/mL
O=c1ccn([C@@H]2C[C@H](CO)C[C@H]2CO)c(=O)[nH]1 ; strain: KOS (TK-) ; result: >100 µg/mL
CC=NC(=N)c1nc(-c2cccc(C)c2)n(C/C=C/c2ccccc2)n1 ; strain: KOS ; method: cytopathic effect ; result: >4 µg/mL
CC1(C)[C@@H](CCO)C[C@H]1n1cnc2c(N)ncnc21 ; strain: TK-/VMW 1837 ; method: cytopathic effect ; result: 100 µg/mL
Cc1cn([C@H]2OC[C@@H](CO)C2F)c(=O)[nH]c1=O ; strain: KOS TK- acyclovir-resistant ; method: cytopathic effect ; result: 240 µg/mL
C#C[C@H](O)C1=C[C@@H](n2cnc3c(N)ncnc32)[C@H](O)[C@@H]1O ; strain: B2006 (TK-) ; method: cytopathic effect ; result: >100 µg/mL
OC[C@H]1O[C@@H](c2cc(C#CBr)c(F)cc2F)C[C@@H]1O ; strain: McIntyre ; method: cytopathic effect ; result: 9.6 µg/mL
CC1(C)[C@@H](CO)CC[C@@]1(C)Cn1cnc2c(N)ncnc21 ; strain: KOS ; method: cytopathic effect ; result: >400 µg/mL
CC(C)CS[C@@H]1C[C@H](n2cnc3c(N)ncnc32)[C@@H](O)[C@H]1O ; strain: KOS ; method: cytopathic effect ; result: >80 µg/mL
C=C(N=CC)c1nc(-c2ccccc2)n([C@@H]2O[C@H](CO)[C@@H](O)[C@H]2O)n1 ; strain: KOS ; method: cytopathic effect ; result: 150 µg/mL
CC1(C)[C@@H](CO)CC[C@@]1(C)Cn1cnc2c(Cl)ncnc21 ; strain: KOS ; method: cytopathic effect ; result: >400 µg/mL
CC=NC(=N)c1nc(-c2ccc(C)cc2)n(C/C=C/c2ccccc2)n1 ; strain: KOS ; method: cytopathic effect ; result: >4 µg/mL
CC1(CO)CCC(Cn2nnc3c(Cl)ncnc32)C1(C)C ; strain: TK-/B2006 ; method: cytopathic effect ; result: 40 µg/mL
CC(=O)OCCOCN1C(=N)/C(=C(\C)O)C(N)=NS1(=O)=O ; strain: KOS ; result: >400 µg/mL
CC1(C)[C@@H](CCO)C[C@H]1n1cnc2c(=O)[nH]c(N)nc21 ; strain: TK-/VMW 1837 ; method: cytopathic effect ; result: >400 µg/mL
CC(=O)OCCOCN1C=CC(=O)NS1(=O)=O ; strain: KOS ; result: >400 µg/mL
OC[C@H]1O[C@@H](c2cc(C(O)CI)c(F)cc2F)C[C@@H]1O ; strain: VMW 1837 ; method: cytopathic effect ; result: >16 µg/mL
O=c1[nH]cnc2c1cnn2Cc1cn(CCCCO)nn1 ; strain: KOS ; result: >400 µg/mL
CC1(CO)CCC(Cc2nc3ncnc(N)c3[nH]2)C1(C)C ; strain: TK-/TK+ (VMW 1837) ; method: cytopathic effect ; result: 40 µg/mL
CSc1ncnc2c1cnn2Cc1cn(CCCCO)nn1 ; strain: B2006 (TK-) ; result: >400 µg/mL
N#CC1=CN(COCCO)S(=O)(=O)N=C1N ; strain: B206 (TK-) ; result: >400 µg/mL
CC=NC(=N)c1nc(-c2ccc(OC)cc2)n(COCCO)n1 ; strain: KOS ; method: cytopathic effect ; result: >200 µg/mL
Cc1cn(C2CC(O[N+](=O)[O-])C(CO)O2)c(=O)[nH]c1=O ; strain: KOS ACV-R (TK-) ; method: cytopathic effect ; result: >400 µg/mL
OC[C@H]1O[C@@H](c2cc(F)c(F)cc2F)C[C@@H]1O ; strain: McIntyre ; method: cytopathic effect ; result: >400 µg/mL
Nc1ncnc2c1ncn2[C@H]1OC[C@@H](CO)C1O ; strain: KOS TK- acyclovir-resistant ; method: cytopathic effect ; result: 240 µg/mL
OC[C@H]1O[C@@H](c2cc(Br)c(F)cc2F)C[C@@H]1O ; strain: KOS/ACV-R ; method: cytopathic effect ; result: >400 µg/mL
CC[C@@H](O)C1=C[C@@H](n2cnc3c(N)ncnc32)[C@H](O)[C@@H]1O ; strain: B2006 (TK-) ; method: cytopathic effect ; result: >400 µg/mL
CC1(C)[C@@H](CCO)C[C@H]1n1nnc2c(=O)[nH]cnc21 ; strain: TK-/VMW 1837 ; method: cytopathic effect ; result: 70 µg/mL
OC[C@H]1O[C@@H](c2cc(C#CI)c(F)cc2F)C[C@@H]1O ; strain: F ; method: cytopathic effect ; result: >400 µg/mL
CC=NC(=N)c1nc(-c2ccc(C)cc2)n(COCCO)n1 ; strain: VMW 1837 ; method: cytopathic effect ; result: >10 µg/mL
COC(CI)c1cc([C@H]2C[C@H](O)[C@@H](CO)O2)c(F)cc1F ; strain: KOS ; method: cytopathic effect ; result: >80 µg/mL
O=c1ccn(C2CC(O[N+](=O)[O-])C(CO)O2)c(=O)[nH]1 ; strain: KOS ; method: cytopathic effect ; result: >400 µg/mL
CC=NC(=N)c1nc(-c2ccc(OC)cc2)n(C/C=C/c2ccccc2)n1 ; strain: VMW 1837 ; method: cytopathic effect ; result: >10 µg/mL
OC[C@H]1O[C@@H](c2cc(Cl)c(F)cc2F)C[C@@H]1O ; strain: KOS/ACV-R ; method: cytopathic effect ; result: >400 µg/mL
CC1(C)[C@@H](CO)CC[C@@]1(C)Cn1nnc2c(=O)[nH]cnc21 ; strain: KOS ; method: cytopathic effect ; result: >400 µg/mL
OC[C@H]1O[C@H](c2cc(I)c(F)cc2F)C[C@@H]1O ; strain: KOS ; method: cytopathic effect ; result: >400 µg/mL
C=C(N=CC)c1nc(-c2ccc(C)cc2)n([C@@H]2O[C@H](CO)[C@@H](O)[C@H]2O)n1 ; strain: VMW 1837 ; method: cytopathic effect ; result: >40 µg/mL
Cc1cn([C@@H]2OC[C@H](CO)[C@H]2O)c(=O)[nH]c1=O ; strain: KOS ; method: cytopathic effect ; result: 9.6 µg/mL
COc1cc(F)c([C@H]2C[C@H](O)[C@@H](CO)O2)cc1[N+](=O)[O-] ; strain: McIntyre ; method: cytopathic effect ; result: >400 µg/mL

For reference, 4 entries again:

SMILES | strain | method | result
CC1(C)[C@@H](CCO)C[C@H]1n1nnc2c(=O)[nH]cnc21 | TK-/VMW 1837 | cytopathic effect | 70 µg/mL
CC1(C)[C@@H](CCO)C[C@H]1n1cnc2c(N)ncnc21 | TK-/VMW 1837 | cytopathic effect | 100 µg/mL
CC=NC(=N)c1nc(-c2cccc(C)c2)n(C/C=C/c2ccccc2)n1 | KOS | cytopathic effect | >4 µg/mL
CC=NC(=N)c1nc(-c2ccc(C)cc2)n(C/C=C/c2ccccc2)n1 | KOS | cytopathic effect | >4 µg/mL